Pooled drug test results. Numbers come from NIAID ChemDB, via PubChem.

All rows: growth or infection tests; agent: Toxoplasma gondii

ECn: concentration that inhibits the pathogen or its effect by n%.

| smiles | tested at | conditions | cell line | read-out | strain or isolate | result |
|---|---|---|---|---|---|---|
| COc1ccc(OCc2ccccc2C(=O)NC(=S)Nc2ccc(Cl)cc2)cc1 | - | - | Human foreskin fibroblasts (HFF) | EC50 | RH beta-gal | 63 µM |
| O=C(NC(=O)c1ccccc1O)c1cccc(CCl)c1 | - | - | Human foreskin fibroblasts | MIC50 | - | >1 µM |
| COc1ccc(NC(=S)NC(=O)c2ccccc2COc2ccc(Cl)cc2)cc1 | - | - | Human foreskin fibroblasts (HFF) | EC50 | RH beta-gal | 116 µM |
| CCc1ccc(NC(=O)Nc2ccccc2O)cc1 | - | - | Human foreskin fibroblasts | MIC50 | - | >0.125 µM |
| CC(C)(C)c1ccc(CSc2ncnc3c2ncn3[C@@H]2O[C@H](CO)[C@@H](O)[C@H]2O)cc1 | 50 µM | - | - | inhibition | RH adenosine kinase-deficient | 0.1% |
| O=C(NC(=O)c1ccccc1O)c1ccccc1O | - | - | Human foreskin fibroblasts | MIC50 | - | >0.25 µM |
| CC[C@H]1OC(=O)[C@H](C)[C@@H](O[C@H]2C[C@@](C)(OC)[C@@H](O)[C@H](C)O2)[C@H](C)[C@@H](O[C@@H]2O[C@H](C)C[C@H](N(C)C)[C@H]2O)[C@](C)(O)C[C@@H](C)CN(C)[C@H](C)[C@@H](O)[C@]1(C)O | 25.4 µg/mL | 40 h | - | inhibition | RH | 90% |
| N#Cc1ccc(CSc2ncnc3c2ncn3[C@@H]2O[C@H](CO)[C@@H](O)[C@H]2O)cc1 | 25 µM | - | - | inhibition | RH adenosine kinase-deficient | 0% |
| N#CC(c1ccc(Cl)cc1)c1c(Cl)cc(-n2ncc(=O)[nH]c2=O)cc1Cl | 0.1 µg/mL | - | - | inhibition | RH | 100% |
| O=C(NC(=S)Nc1ccc(Cl)cc1Cl)c1ccccc1COc1ccc(F)cc1 | - | - | Human foreskin fibroblasts (HFF) | EC50 | RH beta-gal | 69 µM |
| N#Cc1ccc(C(=O)NC(=O)c2ccccc2O)cc1 | - | - | Human foreskin fibroblasts | MIC50 | - | >1 µM |
| COc1ccc(OCc2ccccc2C(=O)NC(=S)Nc2ccc([N+](=O)[O-])cc2)cc1 | - | - | Human foreskin fibroblasts (HFF) | EC50 | RH beta-gal | 55 µM |
| O=C(NC(=O)c1ccccc1O)c1ccc(N2CCCC2)cc1 | - | - | Human foreskin fibroblasts | MIC90 | - | >0.25 µM |
| CN1CCC(c2cc(-c3ccncc3)c(-c3ccc(F)cc3)[nH]2)CC1 | - | - | - | EC50 | TG-PKG FLAG T761M | 3.8 µM |
| COc1ccc(OCc2ccccc2C(=O)NC(=S)Nc2cccc(Br)c2)cc1 | - | - | Human foreskin fibroblasts (HFF) | EC50 | RH beta-gal | 31 µM |

The last 2 rows once more:

smiles,tested at,conditions,cell line,read-out,strain or isolate,result
CN1CCC(c2cc(-c3ccncc3)c(-c3ccc(F)cc3)[nH]2)CC1,-,-,-,EC50,TG-PKG FLAG T761M,3.8 µM
COc1ccc(OCc2ccccc2C(=O)NC(=S)Nc2cccc(Br)c2)cc1,-,-,Human foreskin fibroblasts (HFF),EC50,RH beta-gal,31 µM

An empty or dashed field is not shown. Rows are shuffled and stem from different studies. Percent inhibition refers to the dose given; in toxicity tests it is the harm to the cells. A number after MIC or MFC names an inhibition level or a share of isolates.